B1: BD57-0234 (protein)
chain 1: QVQLVQSGAEVKKPGSSVRVSCKASGGTFSNYPIAWVRQAPGQGLEWMGWIIPILGATTYAQNFQGRVTITADKSTGAAYMELASLTLEDTAVYYCARQVGYSGPGSNYYVDVWGRGTTVTVSS
chain 2: QSVLTQPPSVSGAPGQRVTISCTGSNSNIGAGYDVHWYSQFPGTAPKLLIYANSDRPSGVPDRFSGSKSGTSASLAISGLQAEDEADYYCQSYDSTLSGSVFGGGTKLTVL
B2: BD57-0228 (protein)
chain 1: QLQLQESGPGLVKPSETLSLICTVSGGSIASSDSYWGWIRQSPVKGLEWIGTIYHSGTTFYNPSLKSRVTISRDTSKNQLSLRLRSVTAADTAVYYCVRPRGSPSWFDPWGQGTLVTVSS
chain 2: EIVLTQSPATLSLSPGERATLSCRASQSVSTYLAWYQQRPGQAPRLLIYDASNRATGIPARFSGSGSGTDFTLTISSLEPEDFAVYYCQQRSNWPPQLTFGGGTKVEIK
B3: BD57-0235 (protein)
chain 1: QVQLVQSGAEVKKPGASVKVSCKASGYTFTNYAFSWVRQAPGQGLEWLGRISAHNDNINYAQKLQGRVTMTTDTSTKTAYMELRSLRSDDTAVYYCARNAVGATLVGDDYYYYYGMDVWGQGTTVTVSS
chain 2: SYEVTQPPSVSVSPGQTARITCSGDALPKQYAYWYQQRPGQAPVLVIYKDTERPSGIPERFSGSSSGTTVTLTISGVQAEDEADYYCQSADSSGTFVVFGGGTKLTVL
B4: BD57-0262 (protein)
chain 1: QVHLVQSGAEVKKTGSSVKVSCKASGGTFSSYVISWVRQAPGQGLEWMGGIIPVFGVPNYAQKFKGRVTITAAESTGTAYMELSSLRSEDTAVYFCATGGVSGTVVYNMAVWGEGTAVTVSS
chain 2: QSALTQPPSASGSPGQSVTISCTGTSSDVGGFNYVSWYQQHPGKAPKLIIYEVSQRPSGVPDRFSGSKSGNAASLTVSGLQAEDEADYYCSSYGGNNNLIFGGGTKLTVL
B5: BD57-0248 (protein)
chain 1: EVQLVESGGGLVQPGGSLRLSCAASGFPFSTYDMHWVRQGTGKSLEWVSAIGTAGDTYYSDSVKGRFTISRENAKSSLYLRMNSLRVGDTAVYYCARVSHHYDGRGVPNYYYMDVWGIGTTVTVSS
chain 2: DIQMTQSPSSLSASVGDRVTITCRASQNINTYLNWYQQKPGKGPKLLIYGASNLQSGVPSRFSGSGSGTDFTLTISSLQPEDFASYHCQQSYSNPQATFGQGTKLEIK
B6: BD57-0244 (protein)
chain 1: QVTLKESGPVLVKPSETLTLTCTVSGLSVSNDRMGVSWIRQPPGKALEWLAHIFSNDEKSYSTSLKSRLTISTDTSKRQVVLTMTSMDPVDTATYYCARMPPGVVHNWFDPWGQGILVTVSS
chain 2: SYVLTQPPSVSVAPGKTARITCGGNNIGSKSVHWYQQKTGQAPVLVIYYDSDRPSGIPERFSGSNSGNTATLIISRVEAGDEADYYCQVWDSSSDQGVFGGGTKLTVL
B7: BD57-0226 (protein)
chain 1: QEQLVESGGGVVQPGRSLRLSCAASGFTFSHYGMHWVRQAPGKGLEWVAVISYDGSKRYYAVSVKGRFTISRDNSQNTVALQMNSLRAEDTAVYYCATYDITIFGVNRATGYGPFDIWGQGTMVTVSS
chain 2: QSVLTQPPSASGTPGQRVTISCSGSSSNIGSNFVHWYQQLPGTAPKLLMYGHNQRPSGVSDRFSASKSGTSASLAISGLRSQDEADYYCATWDDSLSGRVFGGGTKLTVL
B8: BD57-0240 (protein)
chain 1: QVQLVESGGGVVQPGRSLRLSCAASGFTFTNYVMHWVRQAPGKGLEWVAVILYDGSNKYYADSVKGRFTISRDSSKNTLYLQMNSLRVEDTAVYYCAKAGGPYCSGTNCYVSYFDYWGQGTLVTVSP
chain 2: DIQMTQSPSSLSASVGDRVTITCQASQDISKYLNWYQQKPGKAPKLLIYAASNLETGVPSRFSGSGSGTDFTFTISTLQPEDIATYSCQQYHNLPLTFGGGTKVEIK
B9: BD57-0254 (protein)
chain 1: DVQLVESGGGLVQPGGSLRLSCAASGFTVTSNYMSWVRQAPGKGLEWVSVVYPGGSTFYADSVKGRFTISRDNSKNTLYLQMNGLRGDDTAVYYCSRDFVRGIRGINHWGQGTLVTVSS
chain 2: B8 chain 2 with V15I, K31N, A50D, S76I, T77S, S87Y, Q89H, H92D, L96Y
B10: BD57-0230 (protein)
chain 1: QVQLVESGGGVVQPGRSLRLSCAASGFTFSDYAFHWVRQAPGKGLEWLAVILSDGSSKFHADSVKGRFTISRDSSKNTLFLQMNSLRTEDTAVYYCARDWGTTVTYFDYWGHGTLVTVSS
chain 2: DIQMTQSPSSLSASVGDRVTITCRASQSIRSFLGWYQQTPGKAPKLLIYDASSLQSGVPSRFSGSGSGTDFTLTISSLQPEDFATYYCQQSYSTPPWTFGQGTKVEIK
B11: BD57-0241 (protein)
chain 1: QVQLVESGGGVVQPGRSLRLSCAASGFSFSNYAMHWVRQAPGKGPEWVAVILSDGSGKFYADSVKGRFTISRDNSKHTLFLQMNSLRPEDTAFYYCARDWGTTVTYFDYWGQGTLVTVSS
chain 2: B10 chain 2 with T22S, F32Y, G34S, T39K, Q55P, G100S
B12: BD57-0236 (protein)
chain 1: EVQLVESGGGLVQPGRSLRLSCAASGFNFDDYAMHWVRQVPGKGLEWVSGINWNSDSVAYAGAVKGRFTISRDNAKNSLYLQMNSLRPEDTAFYYCAKDISMGAGDYFDSWGQGTLVTVSS
chain 2: SYVLTQPPSVSVAPGKTASITCGGNNIGSKGVHWYQQKPGQAPVLVIYYDSDRPSGIPERFSGSNSGNTATLTISRVEAGDEADYYCQVWDGSGAHPGYVFGSGTRVTVL

From the supplement of paper PMC9931576 come the findings set out here.

Numbering of substitutions follows the chain as printed. Human monoclonal antibodies against the spike receptor-binding domain (heavy:light variable regions). IC50 against pseudoviruses bearing the spike of naturally observed variants; lower = stronger; >10 µg/ml means not reached at the top dose. No active / inactive call. The stated detection limit is 0.0005 µg/ml; values near or below 0.001 µg/ml lie at the floor of the assay.

In one assay the target is SARS-CoV-2 Omicron BA.1 spike pseudovirus. Kind of assay: pseudovirus neutralization IC50; higher = weaker neutralization. The protocol: (§1)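 Single-round VSV luciferase pseudovirus mixed with antibody dilutions for 1 h and put on Huh-7 cells for about a day; IC50 from the dose curve.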
In the case of B1, the “pseudovirus neutralization IC50” value was 0.0462 µg/mL.
Still for that read-out and setting: the same measure for B2: more than 10 µg/mL; for B3: 1.88 µg/mL; for B4: more than 10 µg/mL.
As to B5, the “pseudovirus neutralization IC50” value was more than 10 µg/mL.
The same measure, in the same setting: in the case of B6 it was 0.333 µg/mL; in that of B7, more than 10 µg/mL; in that of B8, more than 10 µg/mL.
With B9, the “pseudovirus neutralization IC50” value was 0.00764 µg/mL.
Same read-out and setting: the same measure for B10: more than 10 µg/mL.
B11: the “pseudovirus neutralization IC50” value came out at 3.41 µg/mL.
Still for that read-out and setting: in the case of B12 it was more than 10 µg/mL.

The next assay has as its target SARS-CoV-2 Omicron BA.2 spike pseudovirus. Described as above. The protocol: as §1
For the molecule B1, the “pseudovirus neutralization IC50” value came out at 0.0318 µg/mL.
Consider B2, for which the “pseudovirus neutralization IC50” value was more than 10 µg/mL.
Consider B3, for which the “pseudovirus neutralization IC50” value came out at 2.11 µg/mL.
Consider B4, for which the “pseudovirus neutralization IC50” value is more than 10 µg/mL.
For B5, the “pseudovirus neutralization IC50” value was more than 10 µg/mL.
Same read-out and setting: the same measure for B6: 0.27 µg/mL; for B7: more than 10 µg/mL; for B8: more than 10 µg/mL.
Still for that read-out and setting: in the case of B9 it was 0.00641 µg/mL.
In the case of B10, the “pseudovirus neutralization IC50” value was more than 10 µg/mL.
The same measure, in the same setting: in the case of B11 it was 2.48 µg/mL; in that of B12, more than 10 µg/mL.

In another assay the target is SARS-CoV-2 Omicron BA.2.75 spike pseudovirus. Described as above. The protocol: as §1
In the case of B1, the “pseudovirus neutralization IC50” value came to 0.0183 µg/mL.
Regarding B2, the “pseudovirus neutralization IC50” value was more than 10 µg/mL.
Same read-out and setting: the same measure for B3: 1.68 µg/mL; for B4: 0.00381 µg/mL; for B5: more than 10 µg/mL.
On the same count and under the same terms, the same measure for B6: 0.154 µg/mL.
Consider B7, for which the “pseudovirus neutralization IC50” value is more than 10 µg/mL.
Regarding B8, the “pseudovirus neutralization IC50” value was more than 10 µg/mL.
On the same count and under the same terms, the same measure for B9: 0.346 µg/mL; for B10: more than 10 µg/mL; for B11: 2.38 µg/mL.
Turning to B12, the “pseudovirus neutralization IC50” value is more than 10 µg/mL.

Another assay deals with SARS-CoV-2 Omicron BA.5 spike pseudovirus. Described as above. The protocol: as §1
B1: the “pseudovirus neutralization IC50” value amounted to 1.55 µg/mL.
As for B2, the “pseudovirus neutralization IC50” value was more than 10 µg/mL.
Same read-out and setting: the same measure for B3: 2.45 µg/mL; for B4: 0.0413 µg/mL; for B5: more than 10 µg/mL.
Consider B6, for which the “pseudovirus neutralization IC50” value was more than 10 µg/mL.
As for B7, the “pseudovirus neutralization IC50” value was more than 10 µg/mL.
Still for that read-out and setting: the same measure for B8: more than 10 µg/mL.
Turning to B9, the “pseudovirus neutralization IC50” value is 0.00588 µg/mL.
The same measure, in the same setting: the same measure for B10: more than 10 µg/mL.
The same measure, in the same setting: in the case of B11 it was 2.3 µg/mL; in that of B12, more than 10 µg/mL.

A further assay concerns the target SARS-CoV-2 Omicron BQ.1.1 spike pseudovirus. The assay is described as above. The protocol: as §1
For B1, the “pseudovirus neutralization IC50” value was found to be 1.7 µg/mL.
On to B2, for which the “pseudovirus neutralization IC50” value was more than 10 µg/mL.
The same measure, in the same setting: the same measure for B3: 8.28 µg/mL; for B4: 0.163 µg/mL.
Still for that read-out and setting: the same measure for B5: more than 10 µg/mL; for B6: more than 10 µg/mL; for B7: more than 10 µg/mL.
Still for that read-out and setting: the same measure for B8: more than 10 µg/mL.
Regarding B9, the “pseudovirus neutralization IC50” value was determined as 2.11 µg/mL.
The same measure, in the same setting: the same measure for B10: more than 10 µg/mL; for B11: 3.69 µg/mL; for B12: more than 10 µg/mL.

The next assay addresses SARS-CoV-2 Omicron XBB spike pseudovirus. Described as above. The protocol: as §1
In the case of B1, the “pseudovirus neutralization IC50” value was 0.563 µg/mL.
Take B2: the “pseudovirus neutralization IC50” value was more than 10 µg/mL.
For B3, the “pseudovirus neutralization IC50” value is 2.07 µg/mL.
Still for that read-out and setting: in the case of B4 it was more than 10 µg/mL.
The same measure, in the same setting: the same measure for B5: more than 10 µg/mL; for B6: more than 10 µg/mL.
Still for that read-out and setting: in the case of B7 it was more than 10 µg/mL; in that of B8, more than 10 µg/mL; in that of B9, 2.24 µg/mL.
For B10, the “pseudovirus neutralization IC50” value is more than 10 µg/mL.
The same measure, in the same setting: in the case of B11 it was 2.79 µg/mL; in that of B12, more than 10 µg/mL.

For the next assay, the target named is SARS-CoV-2 early D614G spike pseudovirus. The assay is described as above. The protocol:
as §1
Regarding B1, the “pseudovirus neutralization IC50” value is 0.179 µg/mL.
Same read-out and setting: in the case of B2 it was more than 10 µg/mL; in that of B3, more than 10 µg/mL; in that of B4, 0.0016 µg/mL.
On the same count and under the same terms, in the case of B5 it was more than 10 µg/mL.
In the case of B6, the “pseudovirus neutralization IC50” value came to 0.145 µg/mL.
Still for that read-out and setting: in the case of B7 it was 0.334 µg/mL; in that of B8, more than 10 µg/mL.
Consider B9, for which the “pseudovirus neutralization IC50” value turned out to be 0.00575 µg/mL.
B10: the “pseudovirus neutralization IC50” value was more than 10 µg/mL.
Take B11: the “pseudovirus neutralization IC50” value is 0.764 µg/mL.
As for B12, the “pseudovirus neutralization IC50” value is more than 10 µg/mL.
